Pooled drug test results. Numbers come from NIAID ChemDB, via PubChem.

All rows: toxicity to cultured cells; cells: MT-4; read by: MTT / absorbance; endpoint: CC50

CCn is the concentration with n% toxicity to the cells.

| smiles | result |
|---|---|
| O=C1CSC(=Nc2cccc(C(F)(F)F)c2)N1Cc1ccccc1 | 43 µM |
| O=C(COc1cccnc1-c1cccc2ccccc12)Nc1cccnc1Cl | 179 µM |
| Fc1cccc(Nc2nnnn2-c2cccc(C(F)(F)F)c2)c1 | 48 µM |
| NC(=O)c1ccc(NC(=O)COc2cccnc2-c2ccc(C(F)(F)F)cc2)cc1 | 69.5 µM |
| FC(F)(F)c1cccc(-n2nnnc2Nc2ccc(Cl)c(Cl)c2)c1 | 45 µM |
| Nc1ncnc2c1ccn2/C=C/[C@H](CO)OCP(=O)(O)O | >398 µM |
| Clc1nccc2nc(-c3cccs3)cnc12 | 5.23 µM |
| Cc1cc(C#N)cc(C)c1Oc1nc(Nc2ccc(C#N)cc2)nc(N)c1Br | >4.59 µM |
| Cc1cn([C@H]2C[C@@H](OCP(=O)(O)O)CO2)c(=O)[nH]c1=O | 297 µM |
| O=C1CSC(=Nc2cccc(C(F)(F)F)c2)N1c1ccc(Cl)cc1 | >100 µM |
| CCCOC(=O)[C@H](Cc1ccccc1)NP(=O)(CO[C@H]1CO[C@@H](n2cnc3c(=O)[nH]cnc32)C1)N[C@@H](Cc1ccccc1)C(=O)OCCC | 95.1 µM |
| CCOC(=O)c1ccc(NC(=O)COc2cccnc2-c2cccc3ccccc23)cc1 | 49.5 µM |
| Nc1ncnc2c1ncn2[C@H]1C[C@@H](OCP(=O)(O)O)CO1 | ≥315 µM |
| O=C1CSC(=Nc2cccc(C(F)(F)F)c2)N1c1ccc(Cl)c(Cl)c1 | >100 µM |
| CC(C)(C)c1ccc(-c2ncccc2OCC(=O)Nc2ccc(S(N)(=O)=O)cc2)cc1 | 270 µM |
| O=c1ncc2nc(-c3ccccn3)c(-c3ccccn3)nc2[nH]1 | 82.3 µM |
| Cc1ccnc2c1NC(=O)c1cccnc1N2C1CC1 | >15 µM |
| Cc1ccnc2c1NC(=O)c1cccnc1N2C1CC1 | >4 µM |
| O=C1CSC(=Nc2cccc(C(F)(F)F)c2)N1c1ccc(F)c(Cl)c1 | >100 µM |
| O=c1c2nc(-c3ccccn3)c(-c3ccccn3)nc2nc2scc(-c3ccccc3)n12 | 2.52 µM |
| FC(F)(F)c1cccc(-n2nnnc2Nc2cccc(Cl)c2)c1 | 29 µM |
| NS(=O)(=O)c1ccc(NC(=O)COc2cccnc2-c2ccc(C(F)(F)F)cc2)cc1 | 220 µM |
| Fc1ccccc1Nc1nnnn1-c1cccc(C(F)(F)F)c1 | 50 µM |
| O=c1[nH]cnc2c1ncn2[C@H]1C[C@@H](OCP(=O)(O)O)CO1 | >395 µM |

The last 2 rows once more:

Fc1ccccc1Nc1nnnn1-c1cccc(C(F)(F)F)c1 ; result: 50 µM
O=c1[nH]cnc2c1ncn2[C@H]1C[C@@H](OCP(=O)(O)O)CO1 ; result: >395 µM

Rows are shuffled and stem from different studies.